Measurements reported in PubChem BioAssay AID1259414 (Drosophila RNAi Screening Center, 2018).
The screen tested about 24,000 reagents; shown is an unselected part of those that have a named target and a result. Over the whole deposit, about 1,210 (5%) got an active call. 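Inactive calls also include excluded dsRNAs with several or no targets, genes unexpressed in JW18, and well A1, regardless of score.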 No sequences are given here.

- Aim: 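Host factors increasing or decreasing Wolbachia levels in cultured fly cells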 (primary screen)
- Cell system: Drosophila JW18 cells infected with Wolbachia
- Reagent: long dsRNA against Drosophila genes, 0.25 µg dsRNA per well of a 384-well plate
- Timing: 5 days
- Conditions: cells persistently infected with Wolbachia before knock-down; no added drug
- Read-out: 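Automated imaging of bacterial rRNA staining divided by host cell count, reported as plate-normalised robust z-score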
- Direction: Wolbachia per cell robust z: higher = more Wolbachia per host cell than the plate typical
- Hit rule: 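Active if absolute robust z reaches 1.5 in two or more of three replicates, leaving out multi- or no-target dsRNAs, genes unexpressed in JW18 and A1 wells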

Knock-down of Prosbeta6 [DRSC11256] resulted in: Wolbachia per cell robust z, rep 1 = 0.592; Wolbachia per cell robust z, rep 2 = 0.45; Wolbachia per cell robust z, rep 3 = 0.107; inactive.
With knock-down of ix [DRSC06325] the results were Wolbachia per cell robust z, rep 1 = 0.58; Wolbachia per cell robust z, rep 2 = 0.871; Wolbachia per cell robust z, rep 3 = 0.762; inactive.
With knock-down of ix [DRSC25236], the screen gave Wolbachia per cell robust z, rep 1 = -1.24; Wolbachia per cell robust z, rep 2 = -0.208; Wolbachia per cell robust z, rep 3 = 0.987; inactive.
ND-B14 [DRSC07029] showed Wolbachia per cell robust z, rep 1 = -0.679; Wolbachia per cell robust z, rep 2 = -0.128; Wolbachia per cell robust z, rep 3 = -3.95; inactive.
ND-B14 [DRSC28660] gave Wolbachia per cell robust z, rep 1 = 0.779; Wolbachia per cell robust z, rep 2 = -0.267; Wolbachia per cell robust z, rep 3 = 0.859; inactive.
After knock-down of sunz [DRSC12559] the results were Wolbachia per cell robust z, rep 1 = -5.27; Wolbachia per cell robust z, rep 2 = -1.01; Wolbachia per cell robust z, rep 3 = -7.14; inactive.
For Cpr49Ac [DRSC07199], the values are Wolbachia per cell robust z, rep 1 = -0.649; Wolbachia per cell robust z, rep 2 = -7.19; Wolbachia per cell robust z, rep 3 = -1; inactive.
Elba3 [DRSC00469] gave Wolbachia per cell robust z, rep 1 = 1.26; Wolbachia per cell robust z, rep 2 = 0.982; Wolbachia per cell robust z, rep 3 = 1.06; inactive.
Depletion of CG15144 [DRSC02445] gave: Wolbachia per cell robust z, rep 1 = -2.65; Wolbachia per cell robust z, rep 2 = -3.54; Wolbachia per cell robust z, rep 3 = 1.47; inactive.
CG15144 [DRSC27073] showed Wolbachia per cell robust z, rep 1 = 0.154; Wolbachia per cell robust z, rep 2 = -0.637; Wolbachia per cell robust z, rep 3 = -0.202; inactive.
CG32115 [DRSC22607] scored Wolbachia per cell robust z, rep 1 = -0.904; Wolbachia per cell robust z, rep 2 = -0.69; Wolbachia per cell robust z, rep 3 = 0.0101; inactive.
ClC-b [DRSC07220] gave Wolbachia per cell robust z, rep 1 = 0.428; Wolbachia per cell robust z, rep 2 = 0.366; Wolbachia per cell robust z, rep 3 = 0.706; inactive.
VGlut [DRSC00733] showed Wolbachia per cell robust z, rep 1 = -0.0258; Wolbachia per cell robust z, rep 2 = -0.416; Wolbachia per cell robust z, rep 3 = 0.835; inactive.
For VGlut [DRSC21821] the deposit lists Wolbachia per cell robust z, rep 1 = 0.703; Wolbachia per cell robust z, rep 2 = -0.222; Wolbachia per cell robust z, rep 3 = -0.776; inactive.
otp [DRSC04050] gave Wolbachia per cell robust z, rep 1 = 0.939; Wolbachia per cell robust z, rep 2 = 0.598; Wolbachia per cell robust z, rep 3 = -0.897; inactive.
Knock-down of otp [DRSC04707] gave: Wolbachia per cell robust z, rep 1 = 0.915; Wolbachia per cell robust z, rep 2 = 1.45; Wolbachia per cell robust z, rep 3 = 1.14; inactive.
Against CG5001 [DRSC00673] the deposit lists Wolbachia per cell robust z, rep 1 = -0.488; Wolbachia per cell robust z, rep 2 = -1.6; Wolbachia per cell robust z, rep 3 = -0.792; inactive.
For CG5001 [DRSC26191] the deposit lists Wolbachia per cell robust z, rep 1 = 0.0564; Wolbachia per cell robust z, rep 2 = 1.21; Wolbachia per cell robust z, rep 3 = -0.81; inactive.
With knock-down of fd96Cb [DRSC16947], the record shows Wolbachia per cell robust z, rep 1 = 0.0664; Wolbachia per cell robust z, rep 2 = 0.206; Wolbachia per cell robust z, rep 3 = 0.715; inactive.
After knock-down of fd96Cb [DRSC25322], the screen gave Wolbachia per cell robust z, rep 1 = 0.268; Wolbachia per cell robust z, rep 2 = -0.369; Wolbachia per cell robust z, rep 3 = 0.525; inactive.
For CG6304 [DRSC02948], the values are Wolbachia per cell robust z, rep 1 = 0.18; Wolbachia per cell robust z, rep 2 = -1.55; Wolbachia per cell robust z, rep 3 = -1.02; inactive.
With knock-down of CG6304 [DRSC27729], the screen gave Wolbachia per cell robust z, rep 1 = 1.03; Wolbachia per cell robust z, rep 2 = 0.455; Wolbachia per cell robust z, rep 3 = -0.112; inactive.
For CG31549 [DRSC21688], the entry reads Wolbachia per cell robust z, rep 1 = 1.02; Wolbachia per cell robust z, rep 2 = 0.756; Wolbachia per cell robust z, rep 3 = -0.961; inactive.
After knock-down of JTBR [DRSC08667], the record shows Wolbachia per cell robust z, rep 1 = -2.59; Wolbachia per cell robust z, rep 2 = -0.859; Wolbachia per cell robust z, rep 3 = 0.115; inactive.

Reformatted: 2 of the entries above.
gene knocked down | DRSC id | Wolbachia per cell robust z, rep 1 | Wolbachia per cell robust z, rep 2 | Wolbachia per cell robust z, rep 3 | Outcome
Prosbeta6 | DRSC11256 | 0.592 | 0.45 | 0.107 | inactive
ix | DRSC06325 | 0.58 | 0.871 | 0.762 | inactive
